Anti-infective test results gathered from many reports (values: NIAID ChemDB through PubChem).

Common to all: growth or infection tests; agent: HIV-1; read-out: EC50

Lines come from different laboratories, so protocols vary.

{"compound": "Cc1cn([C@@H]2O[C@H](COC(=O)N(C)C)C3(OS(=O)(=O)C=C3N)[C@H]2O[Si](C)(C)C(C)(C)C)c(=O)n(C)c1=O", "cell line": "CEM + CEM/0", "value": "≥50 µM"}
{"compound": "Cc1cccc(N2CCN(c3ccc4c(=O)c(C(=O)O)cn(-c5ccc(Cn6cncn6)cc5)c4c3)CC2)c1", "method": "syncytia", "cell line": "PBL", "value": "0.12 µM"}
{"compound": "COc1ccc2c(CN(CCCCN)Cc3ncccc3C)nccc2c1", "method": "entry / luminescence", "cell line": "U87.CD4.CXCR4", "value": "3.85 µM"}
{"compound": "C(#Cc1cnc2ccccc2c1)CCC#Cc1cnc2ccccc2c1", "cell line": "CEM-4fx", "value": "135 µM"}
{"compound": "CNC(O)c1cnc(Nc2ccc(C#N)cc2)nc1Nc1c(C)cc(/C=C/C#N)cc1C", "cell line": "MT-4", "strain or isolate": "PSI (IIIB)", "value": "427 µM"}
{"compound": "COc1ccccc1CNC(=O)C1=Cc2ccncc2CC1", "method": "cytopathic effect / MTT", "cell line": "CEM + CEM-SS", "strain or isolate": "RF", "value": ">181 µM"}
{"compound": "Cc1cc(OCc2ccc(-c3cccc(C#N)c3)cc2)cnc1CS(=O)c1nc2ccccc2[nH]1", "method": "ELISA", "cell line": "HEK293T", "strain or isolate": "Clinical isolates", "value": "2 µM"}
{"compound": "O=C(NCCCCCCN1CCC[C@H]2C[C@@H]3C[C@@H](CN4CCCC[C@H]34)[C@@H]21)c1c(F)cc(Br)cc1F", "method": "luciferase", "cell line": "MT-4", "strain or isolate": "NL4-3", "value": ">20 µM"}
{"compound": "COc1cc(CBr)c(-c2c(CBr)cc(OC)c(OC)c2OC)c(OC)c1OC", "method": "p24", "cell line": "H9", "strain or isolate": "IIIB", "value": "90 µM"}
{"compound": "Cc1cccnc1CN(CCCCN)Cc1ccccn1", "method": "flow cytometry", "cell line": "Jurkat cells", "value": "0.0062 µM"}
{"compound": "C[C@H]1[C@H](O)[C@@H](C)/C=C/C=C/C=C/C=C/C=C/C=C/C=C/[C@H](O[C@@H]2O[C@H](C)[C@@H](O)[C@H](N)[C@@H]2O)C[C@@H]2O[C@](O)(C[C@@H](O)C[C@@H](O)CC[C@H](O)[C@@H](O)C[C@@H](O)CC(=O)O[C@H]1C)C[C@H](O)[C@H]2C(=O)O", "method": "p24 / RT activity", "cell line": "PBMC", "strain or isolate": "93BR029 CLADE F R5 (NSI)", "value": "0.9 µM"}
{"compound": "COc1cc2ccnc(CN(CCCCN)Cc3ncccc3C)c2cc1OC", "method": "entry / luminescence", "cell line": "U87.CD4.CXCR4", "value": "0.013 µM"}
{"compound": "CC(=O)OC[C@H]1O[C@@H](n2cc(C)c(=O)n(C)c2=O)[C@H](O[Si](C)(C)C(C)(C)C)C12OS(=O)(=O)C=C2N", "cell line": "MT-4", "value": ">50 µM"}
{"compound": "Cc1ccnc2c1NC(=O)c1cccnc1N2C1CC1", "cell line": "MT-4", "strain or isolate": "IIIB", "value": "0.02 µg/mL"}
{"compound": "Fc1cccc(N=Cc2cc3ccccc3nc2Nc2cccc(F)c2)c1", "method": "luminescence", "cell line": "TZM-bl", "strain or isolate": "UG070", "value": ">130 µM"}
{"compound": "N#CC1=C(N)N2C(=C(C#N)C1c1ccc(Cl)cc1)Oc1ccccc12", "method": "cytopathic effect / XTT", "cell line": "CEM", "value": "36.7 µM"}
{"compound": "COC(O)c1cnc(Nc2ccc(C#N)cc2)nc1Nc1c(C)cc(/C=C/C#N)cc1C", "cell line": "MT-4", "strain or isolate": "MDR", "value": "240 µM"}
{"compound": "CC(C)Oc1ccccc1N1CCN(c2ccc3c(=O)c(C(=O)O)cn(-c4ccc(Cn5cncn5)cc4)c3c2)CC1", "method": "syncytia", "cell line": "PBL", "value": "0.3 µM"}
{"compound": "CC(C)c1ccc2ccccc2n1", "cell line": "CEM-4fx", "value": "4.6 µM"}
{"compound": "OC[C@@H]1C=C[C@H](n2cnc3c(=S)nc[nH]c32)C1", "method": "cytopathic effect / XTT", "cell line": "MT-2", "value": ">10 µg/mL"}
{"compound": "Cc1ccc(NC(=S)N/N=C2\\CC(C)CCC2C(C)C)cc1", "cell line": "MT-4", "strain or isolate": "IIIB", "value": ">2.6 µg/mL"}
{"compound": "CCCCCCCCCCCCCCCCCCOCCOP(=O)(O)CO[C@H](CO)Cn1cnc2c(N)nc(N)nc21", "method": "p24 / ELISA", "cell line": "MT-2", "strain or isolate": "LAI", "value": "0.001 µM"}
{"compound": "CC1CCC(C(C)C)/C(=N/NC(=O)Nc2ccc(Cl)cc2)C1", "cell line": "MT-4", "strain or isolate": "IIIB", "value": ">28.4 µg/mL"}
{"compound": "COC(=O)[C@H](C)NP(=O)(OC[C@@H]1C=C[C@H](n2cc(C)c(=O)[nH]c2=O)O1)Oc1ccccc1", "method": "syncytia", "cell line": "CEM + CEM/0", "strain or isolate": "IIIB", "value": "0.18 µM"}
{"compound": "N#Cc1ccc(Oc2cc(Cl)ccc2Cl)c(OCc2ccncc2)c1", "method": "MTT", "cell line": "MT-2", "strain or isolate": "IIIB", "value": "1.8 µM"}
{"compound": "CCCCCCCCCCCCCCc1ccc2ccccc2n1", "cell line": "CEM-4fx", "value": "108 µM"}
{"compound": "COC(=O)c1cccc(-c2ccc(OCCCOc3cnc(CS(=O)c4nc5ccccc5[nH]4)c(C)c3)cc2)c1", "method": "ELISA", "cell line": "HEK293T", "strain or isolate": "Clinical isolates", "value": "3.5 µM"}
{"compound": "CCC(O)C(N)C(=O)O", "method": "syncytia", "cell line": "H9", "value": "<750 µM"}
{"compound": "CCCCCCCCCCCCCCCCCCOCCOP(=O)(O)CO[C@H](CO)Cn1ccc(N)nc1=O", "mutations": "M41L D67N K70R T215Y K219Q", "method": "p24 / ELISA", "cell line": "PBMC", "strain or isolate": "NRTI-MDR", "value": "0.012 µM"}
{"compound": "Cc1cc(OCCCOc2ccc(-c3cccc(-c4nn[nH]n4)c3)cc2)cnc1CS(=O)c1nc2ccccc2[nH]1", "method": "ELISA", "cell line": "HEK293T", "strain or isolate": "Clinical isolates", "value": "2 µM"}
{"compound": "COCCOC(O)c1cnc(Nc2ccc(C#N)cc2)nc1Nc1c(C)cc(/C=C/C#N)cc1C", "cell line": "MT-4", "strain or isolate": "K103N + Y181C", "value": "0.03162 µM"}
{"compound": "Cc1cc(C)nc(SC(F)(F)c2nc3ccccc3o2)n1", "method": "cytopathic effect / XTT", "cell line": "CEM + CEM-SS", "strain or isolate": "RF", "value": "2.16 µM"}
{"compound": "O=C(O)c1cc(-n2cccc2)ccc1Cl", "method": "luciferase / cell fusion", "cell line": "PBMC/5.25M7", "strain or isolate": "92US657 R5 CLADE B", "value": "38.11 µM"}
{"compound": "O=c1c2cc(O)ccc2oc2cccc(O)c12", "value": "1 µg/mL"}
{"compound": "COc1ccc(C2C(C#N)=C(N)N3C(=C2C#N)Oc2ccccc23)cc1", "method": "cytopathic effect / XTT", "cell line": "CEM", "value": ">200 µM"}
{"compound": "Cc1cc(/C=C/C#N)cc(C)c1Nc1nc(Nc2ccc(C#N)cc2)ncc1C(O)n1ccnc1", "cell line": "MT-4", "strain or isolate": "MDR", "value": "501 µM"}
{"compound": "O=S(=O)(O)c1cc(O)c2c(NS(=O)(=O)c3ccc(-c4ccc(S(=O)(=O)Nc5cc(S(=O)(=O)O)cc6cc(S(=O)(=O)O)cc(O)c56)cc4)cc3)cc(S(=O)(=O)O)cc2c1", "method": "syncytia", "cell line": "MT-4", "strain or isolate": "IIIB", "value": "40 µg/mL"}
{"compound": "COc1cc(-c2nnc(-c3ccc4cccc(OC)c4n3)o2)cc(OC)c1OC", "method": "luminescence", "cell line": "TZM-bl", "strain or isolate": "VB59", "value": ">100 µM"}
{"compound": "Nc1nc2c(ncn2[C@H]2C=C[C@@H](CO)C2)c(=O)[nH]1", "method": "cytopathic effect / XTT", "cell line": "MT-2", "value": "0.66 µg/mL"}
{"compound": "Cc1cc(COc2ccc(-c3cccc(C#N)c3)cc2)cnc1CS(=O)c1nc2ccccc2[nH]1", "method": "ELISA", "cell line": "HEK293T", "strain or isolate": "Clinical isolates", "value": "1 µM"}
{"compound": "Cc1cc(/C=C/C#N)cc(C)c1Nc1nc(Nc2ccc(C#N)cc2)ncc1C(O)OCc1cccnc1", "cell line": "MT-4", "strain or isolate": "MDR", "value": "437 µM"}
{"compound": "COc1ccccc1N1CCN(c2ccc3c(=O)c(C(=O)O)cn(-c4ccc(Cn5cncn5)cc4)c3c2)CC1", "method": "syncytia", "cell line": "PBL", "value": "0.1 µM"}
{"compound": "N#CC(C(=S)NCc1ccc(Cl)cc1)c1nc2ccccc2o1", "method": "cytopathic effect / XTT", "cell line": "CEM", "value": "36.9 µM"}
{"compound": "COCCCOc1cnc(CS(=O)c2nc3ccccc3[nH]2)c(C)c1", "method": "ELISA", "cell line": "HEK293T", "strain or isolate": "Clinical isolates", "value": "15 µM"}
{"compound": "COc1cccc(N2CCN(c3ccc4c(=O)c(C(=O)O)cn(-c5ccc(Cn6cncn6)cc5)c4c3)CC2C)c1", "method": "syncytia", "cell line": "PBL", "value": "0.25 µM"}
{"compound": "FC(F)(Sc1ncccn1)c1nc2ccccc2o1", "method": "cytopathic effect / XTT", "cell line": "CEM + CEM-SS", "strain or isolate": "IIIB", "value": "3.36 µM"}
{"compound": "COc1cccc2ccc(-c3nnc(-c4ccc(C)cc4)o3)nc12", "method": "luminescence", "cell line": "TZM-bl", "strain or isolate": "VB59", "value": "35.89 µM"}
{"compound": "Cc1cc(/C=C/C#N)cc(C)c1Nc1nc(Nc2ccc(C#N)cc2)ncc1C(O)C(C)C", "cell line": "MT-4", "strain or isolate": "L100I + K103N", "value": "0.468 µM"}
{"compound": "O=C(Cc1ccc2c(c1)OC(F)(F)O2)NCCCCN1CCCC2=C[C@@H]3C[C@@H](CN4CCCC[C@H]34)[C@@H]21", "method": "luciferase", "cell line": "MT-4", "strain or isolate": "NL4-3", "value": "0.62 µM"}
{"compound": "Cc1ccnc(SC(F)(F)c2nc3ccccc3o2)n1", "mutations": "RT-P236L", "method": "cytopathic effect / XTT", "cell line": "CEM + CEM-SS", "strain or isolate": "HEPT (RT P236L)", "value": "0.11 µM"}
{"compound": "COc1ccc(-c2nnc(-c3ccc4cccc(OC)c4n3)o2)cc1", "method": "luminescence", "cell line": "TZM-bl", "strain or isolate": "UG070", "value": "135 µM"}
{"compound": "O=C(NCCc1ccccc1)C1=Cc2ccncc2CC1", "method": "cytopathic effect / XTT", "cell line": "CEM + CEM-SS", "strain or isolate": "IIIB", "value": ">34 µM"}
{"compound": "O=C(NCCCCCCN1CCC[C@H]2C[C@@H]3C[C@@H](CN4CCCC[C@H]34)[C@@H]21)c1ccc(OC(F)(F)F)cc1", "method": "luciferase", "cell line": "MT-4", "strain or isolate": "NL4-3", "value": ">20 µM"}
{"compound": "OC(c1ccc2ccccc2n1)C1CC1", "cell line": "CEM-4fx", "value": "9.8 µM"}
{"compound": "COC(=O)c1ccc(OCCCOc2ccnc(CSc3nc4ccccc4[nH]3)c2C)cc1OC", "method": "ELISA", "cell line": "HEK293T", "strain or isolate": "Clinical isolates", "value": "3 µM"}
{"compound": "O=C(NCCCCCCN1CCCC2=C[C@@H]3C[C@@H](CN4CCCC[C@H]34)[C@@H]21)c1ccc(Br)c(C(F)(F)F)c1", "method": "luciferase", "cell line": "MT-4", "strain or isolate": "NL4-3", "value": ">20 µM"}
{"compound": "Cc1cc(/C=C/C#N)cc(C)c1Nc1nc(Nc2ccc(C#N)cc2)ncc1C(O)c1nccn1C", "cell line": "MT-4", "strain or isolate": "PSI (IIIB)", "value": "166 µM"}
{"compound": "Cc1cn([C@@H]2O[C@H](CN3CCN(C)CC3)C3(OS(=O)(=O)C=C3N)[C@H]2O[Si](C)(C)C(C)(C)C)c(=O)n(C)c1=O", "cell line": "CEM + CEM/0", "value": ">50 µM"}
{"compound": "CC(C)[C@H](NC(=O)[C@H](Cc1ccccc1)C[C@H](O)[C@H](Cc1ccccc1)NC(=O)OC(C)(C)C)C(=O)N[C@@H](Cc1ccccc1)C(=O)N1CCOCC1", "method": "RT activity", "cell line": "MT-2", "strain or isolate": "MN", "value": "0.0069 µM"}
{"compound": "CC(C)Oc1ccccc1CNC(=O)c1ccc2cnccc2n1", "method": "cytopathic effect / XTT", "cell line": "CEM + CEM-SS", "strain or isolate": "RF", "value": ">31 µM"}
{"compound": "CCCCCCCCCCCCCCCCCCOCCOP(=O)(O)CO[C@H](CO)Cn1cnc2c(N)ncnc21", "method": "p24 / ELISA", "cell line": "PBMC", "strain or isolate": "LAI", "value": "0.01 µM"}
{"compound": "O=C1CS/C(=C/c2nc3ccccc3o2)N1", "method": "cytopathic effect / XTT", "cell line": "CEM", "value": "4.02 µM"}
{"compound": "COc1cc(CO)c(-c2c(CO)cc(OC)c(OC)c2OC)c(OC)c1OC", "method": "p24", "cell line": "H9", "strain or isolate": "IIIB", "value": "65 µM"}

5 of the rows above, restated:

| compound | mutations | method | cell line | strain or isolate | value |
|---|---|---|---|---|---|
| OC[C@@H]1C=C[C@H](n2cnc3c(=S)nc[nH]c32)C1 | - | cytopathic effect / XTT | MT-2 | - | >10 µg/mL |
| COC(=O)[C@H](C)NP(=O)(OC[C@@H]1C=C[C@H](n2cc(C)c(=O)[nH]c2=O)O1)Oc1ccccc1 | - | syncytia | CEM + CEM/0 | IIIB | 0.18 µM |
| CCCCCCCCCCCCCCCCCCOCCOP(=O)(O)CO[C@H](CO)Cn1ccc(N)nc1=O | M41L D67N K70R T215Y K219Q | p24 / ELISA | PBMC | NRTI-MDR | 0.012 µM |
| COc1cc(-c2nnc(-c3ccc4cccc(OC)c4n3)o2)cc(OC)c1OC | - | luminescence | TZM-bl | VB59 | >100 µM |
| COc1ccccc1CNC(=O)C1=Cc2ccncc2CC1 | - | cytopathic effect / MTT | CEM + CEM-SS | RF | >181 µM |

ECn is the concentration giving n% inhibition of infection, replication or growth. Blank or dashed fields: not listed here.